Results of unrelated studies side by side (data: NIAID ChemDB).

Shared fields: cytotoxicity tests; measure: CC50

Blank or dashed fields: not listed here. CCn: concentration that lowers growth or viability of the cells by n%. Lines come from different laboratories, so protocols vary.

smiles | method | cells | result
CCOC(=O)CCCCCOc1cccc(CN(C(=O)c2ccc(-c3ccc4c(c3)OCO4)cc2)C(C)C)c1 | - | HEK 293 | >20 µM
CC(NCc1cccc(Cl)c1)c1cnc2c(c1)c(O)c(-c1ccccc1)c(=O)n2O | - | HeLa | <100 µM
CCOC(=O)[C@@]1(C)CC[C@]2(C)CC[C@]3(C)C(=CC(=O)[C@@H]4[C@@]5(C)CC/C(=N\OCc6cccc7ccccc67)C(C)(C)[C@@H]5CC[C@]43C)[C@@H]2C1 | MTT | CT26 | >100 µM
CC(C)C[C@@H]1NC(=O)[C@H](Cc2c[nH]c3ccccc23)NC(=O)[C@@H](CCCN)NC(=O)[C@H](CC(N)=O)NC(=O)[C@H](C(C)C)NC(=O)[C@@H](CC(C)C)NC1=O | MTT | Colorectal carcinoma | >30 µM
CCOC(=O)c1c(O)c2cc(-c3cccc(-c4ccccc4)c3)cnc2n(O)c1=O | - | HeLa | <100 µM
O=S(=O)(NCc1cc(Cl)ccc1Oc1ccc(Cl)cc1O)c1ccccc1 | fluorescence | Human foreskin fibroblasts | >10 µM
OC[C@@H](O)[C@@H]1NC[C@@H](O)[C@H]1O | - | T CELLS | >160 µg/mL
CC(C)N(Cc1ccccc1OCC(=O)O)C(=O)c1ccc(-c2ccc3c(c2)OCO3)cc1 | - | HepG2 | >20 µM
CC(C)C[C@@H]1NC(=O)[C@H](Cc2c[nH]c3ccccc23)NC(=O)CNC(=O)[C@H](CC(N)=O)NC(=O)[C@H]([C@@H](C)O)NC(=O)[C@@H](CC(C)C)NC1=O | MTT | Colorectal carcinoma | >30 µM
Oc1cc(Cl)ccc1Oc1ccc(Cl)cc1CNCc1ccc(-c2ccccc2)cc1 | fluorescence | Human foreskin fibroblasts | >10 µM
CC(C)C[C@@H]1NC(=O)[C@H](Cc2c[nH]c3ccccc23)NC(=O)CNC(=O)[C@H](CC(N)=O)NC(=O)[C@H](C(C)C)NC(=O)[C@@H](CC(C)C)NC1=O | MTT | Lung carcinoma cells | >30 µM
Cc1c(OCC(C)C)ccc2c1c(=O)cc(-c1ccccc1)n2C | MTT | HELA-OHIO | >5 µg/mL
CCOC(=O)[C@@]1(C)CC[C@]2(C)CC[C@]3(C)C(=CC(=O)[C@@H]4[C@@]5(C)CC/C(=N\OCc6ccc(C(=O)OC)o6)C(C)(C)[C@@H]5CC[C@]43C)[C@@H]2C1 | MTT | K562 | 18.11 µM
Cc1c(-c2ccccc2)n(C)c2cc(C(C)C)c(OC(C)C)cc2c1=O | MTT | HeLa S3 | >5 µg/mL
Oc1cc(Cl)ccc1Oc1ccc(Cl)cc1CNCc1ccc2ccccc2c1 | fluorescence | Human foreskin fibroblasts | >10 µM
C=C(C)[C@@H]1CCC2(C(=O)NCCC(=O)OCC)CC[C@]3(C)C(CCC4[C@@](C)(CC#N)C(C(C)(C)C(=O)NCCC(=O)OCC)CC[C@]43C)C12 | MTT | RD TE32 | 72 µM
CC(C)N(Cc1cccc(OCCCCCC(=O)OC(=O)O)c1)C(=O)c1ccc(-c2ccoc2)cc1 | - | BJ | >20 µM
CCOC(=O)[C@@]1(C)CC[C@]2(C)CC[C@]3(C)C(=CC(=O)[C@@H]4[C@@]5(C)CC/C(=N\OCc6ccccc6)C(C)(C)[C@@H]5CC[C@]43C)[C@@H]2C1 | MTT | K562 | 12.25 µM
O=C(O)c1cc(-c2ccco2)nc2ccccc12 | - | RAJI | >20 µM
CS(=O)(=O)C1(c2ccc(C(=O)NC34CC(c5nnn(-c6ccc(Cl)cc6)n5)(C3)C4)o2)CC1 | absorbance | Primary human hepatocytes | 12.2 µM
COc1ccc(C(O)C(Br)N=[N+]=[N-])cc1OC | - | BJ | <13.5 µM
O=C1NNC(=O)c2c(ncn2[C@@H]2O[C@H](CO)[C@@H](O)[C@H]2O)N1 | - | 2.2.15 | 1844 µM
CCc1ccc(Oc2ccc(Cl)cc2Cl)c(O)c1 | fluorescence | Human foreskin fibroblasts | >10 µM
CS(=O)(=O)C1(c2ccc(C(=O)NC34CC(c5nc(-c6ccccc6Cl)cs5)(C3)C4)o2)CC1 | absorbance | Primary human hepatocytes | 8.85 µM
CCOC(=O)c1ccc(CO/N=C2\CC[C@]3(C)[C@H]4C(=O)C=C5[C@@H]6C[C@@](C)(C(=O)OCC)CC[C@]6(C)CC[C@@]5(C)[C@]4(C)CC[C@H]3C2(C)C)o1 | MTT | K562 | 27.39 µM
CCOC(=O)CCCCCOc1cccc(CN(C(=O)c2ccc(Br)cc2)C(C)C)c1 | - | BJ | >20 µM
O=c1cc(N2CCC(Cc3ccccc3)CC2)c2cccnc2n1O | - | HeLa | <100 µM
NC(=O)Nc1ccc(Oc2ccc(Cl)cc2O)c(Cl)c1 | fluorescence | Human foreskin fibroblasts | >10 µM
CC(C)C[C@@H]1NC(=O)[C@H](Cc2c[nH]c3ccccc23)NC(=O)C(C[C@@H](C)[C@H](N)C(=O)O)NC(=O)[C@H](CC(N)=O)NC(=O)[C@H](C(C)C)NC(=O)[C@@H](CC(C)C)NC1=O | MTT | Colorectal carcinoma | >30 µM
CS(=O)(=O)C1(c2ccc(C(=O)NC34CC(c5nc(-c6ccc(Cl)cc6)ns5)(C3)C4)o2)CC1 | absorbance | Primary human hepatocytes | 39.05 µM
CCOC(=O)[C@@]1(C)CC[C@]2(C)CC[C@]3(C)C(=CC(=O)[C@@H]4[C@@]5(C)CC/C(=N\OCc6cccc(C)c6)C(C)(C)[C@@H]5CC[C@]43C)[C@@H]2C1 | MTT | CT26 | 22.45 µM
COc1ccc(CNc2cc(=O)n(O)c3ncccc23)cc1 | - | HeLa | 0.09 µM
OC[C@H]1NC[C@H](O)[C@@H]1O | - | T CELLS | >130 µg/mL
CC(C)C[C@@H]1NC(=O)[C@H](Cc2ccc(O)cc2)NC(=O)[C@@H](CCCCN)NC(=O)[C@H](CC(N)=O)NC(=O)[C@H](C(C)C)NC(=O)[C@@H](CC(C)C)NC1=O | MTT | Lung carcinoma cells | >30 µM
CCOC(=O)[C@@]1(C)CC[C@]2(C)CC[C@]3(C)C(=CC(=O)[C@@H]4[C@@]5(C)CC/C(=N\OCc6cc(Br)cc(Br)c6)C(C)(C)[C@@H]5CC[C@]43C)[C@@H]2C1 | MTT | CT26 | 74.86 µM
CN1C[C@H](O)[C@H](O)[C@H]1CO | - | T CELLS | >100 µg/mL
CCn1c(-c2cccs2)cc(=O)c2cc(C(C)C)ccc21 | MTT | HeLa S3 | 18 µg/mL
CCOC(=O)COc1ccc(C(O)O)cc1 | - | RAJI | >20 µM
Cc1cc2c(cc1OCC(C)C)c(=O)c(C)c(-c1ccccc1)n2C | MTT | HELA-OHIO | >5 µg/mL
CS(=O)(=O)C1(c2ccc(C(=O)NC34CC(c5noc(-c6ccc(Cl)cc6)n5)(C3)C4)o2)CC1 | absorbance | Primary human hepatocytes | 46 µM
CCOC(=O)c1c(O)c2cc(-c3ccccc3)cnc2n(O)c1=O | - | HeLa | <100 µM
Cc1c(-c2ccccc2)n(-c2ccc(F)cc2)c2ccc(C(C)C)cc2c1=O | MTT | HELA-OHIO | >5 µg/mL

6 of the rows above, restated:

smiles	method	cells	result
CCOC(=O)c1c(O)c2cc(-c3ccccc3)cnc2n(O)c1=O	-	HeLa	<100 µM
CS(=O)(=O)C1(c2ccc(C(=O)NC34CC(c5nnn(-c6ccc(Cl)cc6)n5)(C3)C4)o2)CC1	absorbance	Primary human hepatocytes	12.2 µM
OC[C@H]1NC[C@H](O)[C@@H]1O	-	T CELLS	>130 µg/mL
CCn1c(-c2cccs2)cc(=O)c2cc(C(C)C)ccc21	MTT	HeLa S3	18 µg/mL
CC(C)C[C@@H]1NC(=O)[C@H](Cc2c[nH]c3ccccc23)NC(=O)C(C[C@@H](C)[C@H](N)C(=O)O)NC(=O)[C@H](CC(N)=O)NC(=O)[C@H](C(C)C)NC(=O)[C@@H](CC(C)C)NC1=O	MTT	Colorectal carcinoma	>30 µM
CS(=O)(=O)C1(c2ccc(C(=O)NC34CC(c5noc(-c6ccc(Cl)cc6)n5)(C3)C4)o2)CC1	absorbance	Primary human hepatocytes	46 µM